Results as given in publication PMC5543684.

Test system: C[C@H]1O[C@H](OP(=O)(O)OP(=O)(O)OC[C@H]2O[C@@H](n3cnc4c(=O)[nH]c(N)nc43)[C@H](O)[C@@H]2O)[C@@H](O)[C@@H](O)[C@@H]1N
Assay: purified protein
Conditions: pH 8.0

For (Brucella melitensis bv. 1 str. 16M), the Km was 184 ± 8 µM.
